# Test results published in PubChem BioAssay AID720532 (National Center for Advancing Translational Sciences (NCATS), 2013).
# Only a part is listed here, and it is no random draw. Records with an inconclusive call do not appear. Entries that show only a call come without a potency. Active and inactive are the calls of the source. Calls come from the whole dose curve; tested in HEK293 cells.
# Assay: qHTS for Inhibitors of binding or entry into cells for Marburg Virus
# Details: Marburg virus pseudotype entry/binding inhibition, cell-based; series mostly up to 49.2 µM
# Potency is the fitted concentration of half-maximal effect.
row,SMILES,Potency
1,CC(=O)C1=CCCC2CCC1N2 (configuration not stated),inactive
2,CCNC(C)Cc1ccc2c(c1)OCO2 (configuration not stated),active: 11.2 µM
3,O=C(OC1CN2CCC1CC2)c1ccccc1 (configuration not stated),inactive
4,CCC(C)(OOC(C)(C)C)OOC(C)(C)C,inactive
5,CN(C(=O)Cc1ccccc1)[C@H]1CC[C@@]2(CCCO2)C[C@@H]1N1CCCC1,inactive
6,NC(=O)Nc1ccc([As](=O)(O)O)cc1,inactive
7,O=[N+]([O-])CC(O)c1ccc([N+](=O)[O-])cc1 (configuration not stated),inactive
